The values below come from patent publication EP0695746A2, “Antiviral compounds and pharmaceutical compositions” (PHARMA MAR, S.A., priority 1994, dated 1996).

The subject of this test is HIV-1 RF. The test can be described thus: XTT cytoprotection assay (called Cytotoxic Assay in the tables), antiviral activity. The note with it: listed as PM-92131 (±) (289-8). It is filed as cell-based. (In general: Tetrazolium dyes change colour on reduction, which living cells bring about.)

Turning to `CC1(C)CCC[C@@]2(C)[C@H](c3ccoc3)C(=O)[C@H]3O[C@@]312` (racemic) [PM-92131 (±)], the SI is over 5 (Table II) and over 5 (Table III).
